Data source: PubChem BioAssay AID624099 (ICCB-Longwood, 2012)

Screen: 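Knock-downs relieving repression by E2 of an HPV18 LCR luciferase reporter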 (primary screen)
Cell system: human C33A cervical carcinoma cells (HPV-negative) stably expressing BPV1 E2 and an HPV18 LCR luciferase reporter
Reagent: siRNA pool against human genes, 40 nM
Time to read-out: 72 h
Measured: 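HPV18 LCR reporter light per well, converted to plate-wise z-scores that exclude control wells, and averaged over triplicate plates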
Direction: mean z-score and z-score: higher = stronger reporter signal, weaker E2 silencing
Call rule: 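Hit if mean z-score reaches 2 and two or more of three replicate z-scores also reach 2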
This is an unselected part of about 21,000 deposited reagents. 497 of them (2.4%) were called active. 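Higher z means weaker E2 silencing; only reporter increases were scored, and knock-downs that hurt cell survival may mask genuine repressor factors.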 A number with no mark means an inactive call. Reagent sequences are not shown.

For MTX3, what does the deposit list?
mean z-score: -0.55; z-score, replicate A: -0.81; z-score, replicate B: -0.48; z-score, replicate C: -0.34

How did the screen score CLCN6?
mean z-score: -0.31; z-score, replicate A: -0.21; z-score, replicate B: -0.37; z-score, replicate C: -0.35

What did the screen give for RNLS?
mean z-score: 1.82; z-score, replicate A: 2.09; z-score, replicate B: 2.08; z-score, replicate C: 1.28

What is on record for IDO1?
mean z-score: 0.38; z-score, replicate A: 0.48; z-score, replicate B: 0.22; z-score, replicate C: 0.45

What is on record for CCND3?
mean z-score: -0.02; z-score, replicate A: -0.37; z-score, replicate B: 0.09; z-score, replicate C: 0.23

Which result is listed for GZMB?
mean z-score: -0.44; z-score, replicate A: -0.96; z-score, replicate B: 0.08; z-score, replicate C: -0.45

With LOC401385 (retired record), how do the results read?
mean z-score: 0.13; z-score, replicate A: 0.12; z-score, replicate C: 0.15

With RPL10L, what was measured?
mean z-score: 0.9; z-score, replicate A: 0.63; z-score, replicate B: 0.46; z-score, replicate C: 1.6

For KDM2B, what does the deposit list?
mean z-score: -0.17; z-score, replicate A: -0.39; z-score, replicate B: -0.06; z-score, replicate C: -0.05

For TFAM, what was measured?
mean z-score: -1.26; z-score, replicate A: -1.23; z-score, replicate B: -1.32; z-score, replicate C: -1.24

How did the screen score ZMYM2?
mean z-score: -1.08; z-score, replicate A: -1.26; z-score, replicate B: -1; z-score, replicate C: -0.98

With SLC31A2, what does the deposit list?
mean z-score: -0.38; z-score, replicate A: -0.33; z-score, replicate B: -0.49; z-score, replicate C: -0.31

For STXBP3, what was measured?
mean z-score: -0.66; z-score, replicate A: -0.47; z-score, replicate B: -0.79; z-score, replicate C: -0.72

For GTF2E1, what does the deposit list?
mean z-score: -1.11; z-score, replicate A: -1.13; z-score, replicate B: -0.91; z-score, replicate C: -1.27

With LOC388652 (retired record), how do the results read?
mean z-score: -0.83; z-score, replicate A: -0.47; z-score, replicate B: -1.19; z-score, replicate C: -0.82

With SEC31A, how do the results read?
mean z-score: -1.33; z-score, replicate A: -1.41; z-score, replicate B: -1.52; z-score, replicate C: -1.07

What is on record for TGM2?
mean z-score: 0.22; z-score, replicate A: 0.32; z-score, replicate B: 0.08; z-score, replicate C: 0.26

With PSG9, what does the deposit list?
mean z-score: 1.33; z-score, replicate A: 1.19; z-score, replicate B: 1.39; z-score, replicate C: 1.43

What is on record for HDAC2?
mean z-score: 0.31; z-score, replicate A: 0.37; z-score, replicate B: 0.31; z-score, replicate C: 0.24

What did the screen give for RAC2?
mean z-score: -0.17; z-score, replicate A: -0.2; z-score, replicate B: -0.17; z-score, replicate C: -0.13

What is on record for ANKRD13C?
mean z-score: -2.32; z-score, replicate A: -1.73; z-score, replicate B: -2.35; z-score, replicate C: -2.88

For DPEP2, what was measured?
mean z-score: -0.67; z-score, replicate A: -0.96; z-score, replicate B: -0.39; z-score, replicate C: -0.66

How did the screen score SUGT1P4-STRA6LP-CCDC180?
mean z-score: 0.17; z-score, replicate A: 0.55; z-score, replicate B: 0.48; z-score, replicate C: -0.52

What is on record for MAST1?
mean z-score: -0.49; z-score, replicate A: -0.32; z-score, replicate B: -0.7; z-score, replicate C: -0.45

For LOC389683 (retired record), how do the results read?
mean z-score: -0.01; z-score, replicate A: -0.06; z-score, replicate B: -0.09; z-score, replicate C: 0.14

How did the screen score AR?
mean z-score: -0.96; z-score, replicate A: -0.96; z-score, replicate B: -0.99; z-score, replicate C: -0.93

For LYRM9, what was measured?
mean z-score: 1.06; z-score, replicate A: 0.73; z-score, replicate B: 1.4; z-score, replicate C: 1.06

Only “z-score, replicate A” (2 entries from above):
TFAM	-1.23
ZMYM2	-1.26
